Source: PubChem BioAssay AID602123 (The Scripps Research Institute Molecular Screening Center, 2011)
This is a selection; strong and weak results do not stand in their true shares. The source made the active and inactive calls. Rule as the data show it: active = inhibition above about 13% (passing the limit was not always enough); inactive = the rest.

Amino acid sequences for entries named in this document (tags omitted).
UniProt P0A9M0, whole entry: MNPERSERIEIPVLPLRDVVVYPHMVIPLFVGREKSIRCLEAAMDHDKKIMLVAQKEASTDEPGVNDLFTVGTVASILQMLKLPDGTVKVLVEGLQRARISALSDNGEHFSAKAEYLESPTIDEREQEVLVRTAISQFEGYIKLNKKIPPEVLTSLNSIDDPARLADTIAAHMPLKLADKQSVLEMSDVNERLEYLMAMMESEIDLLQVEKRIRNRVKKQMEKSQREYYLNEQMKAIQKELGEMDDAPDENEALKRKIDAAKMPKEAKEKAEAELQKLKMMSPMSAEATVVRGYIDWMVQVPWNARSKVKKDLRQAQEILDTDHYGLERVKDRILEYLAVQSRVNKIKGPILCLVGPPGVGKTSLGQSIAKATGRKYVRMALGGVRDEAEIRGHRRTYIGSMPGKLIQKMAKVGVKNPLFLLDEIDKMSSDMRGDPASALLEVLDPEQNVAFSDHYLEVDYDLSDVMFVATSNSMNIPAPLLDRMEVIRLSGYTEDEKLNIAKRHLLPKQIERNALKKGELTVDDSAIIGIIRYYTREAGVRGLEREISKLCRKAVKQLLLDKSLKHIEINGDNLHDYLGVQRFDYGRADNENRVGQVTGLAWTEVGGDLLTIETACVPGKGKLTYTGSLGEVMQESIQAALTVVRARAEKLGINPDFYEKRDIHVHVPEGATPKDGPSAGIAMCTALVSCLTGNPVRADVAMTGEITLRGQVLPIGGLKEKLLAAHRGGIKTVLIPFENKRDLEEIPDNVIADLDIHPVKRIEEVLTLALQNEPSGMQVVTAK

molecular target: Lon protease (Escherichia coli (strain K12)) (UniProt P0A9M0); assay: E. coli eLon protease inhibition – biochemical, fluorescence polarization, primary screen (AID 602123);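 also: 0% = enzyme with probe and DMSO and 100% = no enzyme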; conditions: purified E. coli Lon protease, at 7.94 µM, hits give high values

Row | SMILES | inhibition
1 | COc1ccccc1OP(C)(=O)Nc1ccccc1 (centres undefined) | inactive: 2.72%
2 | CP(=O)(Nc1ccccc1Br)Oc1ccccc1 (centres undefined) | inactive: -12.9%
3 | CP(=S)(Nn1cnnc1)Oc1ccccc1 (centres undefined) | inactive: -5.88%
4 | CCc1ccc(OP(C)(=O)N2CCN(c3ccc([N+](=O)[O-])cc3)CC2)cc1 (centres undefined) | inactive: 3.65%
5 | CP(=O)(NC(=O)Nc1ccccc1)Oc1ccccc1 (centres undefined) | inactive: -4.22%
6 | Cc1cc(C)cc(OP(C)(=O)Nc2ccc(SC(F)(F)F)cc2)c1 (centres undefined) | inactive: 2.64%
7 | Cc1ccc(Nc2c([N+](=O)[O-])cc([N+](=O)[O-])cc2[N+](=O)[O-])cc1 | inactive: -4.48%
8 | Cc1cccc(C)c1OP(C)(=O)Nc1ccc(SC(F)(F)F)cc1 (centres undefined) | inactive: 0.44%
9 | CP(=O)(Nc1ccc(SC(F)(F)F)cc1)Oc1ccc(Cl)cc1 (centres undefined) | inactive: 9.29%
10 | CP(=O)(Oc1ccccc1)OC(c1ccccc1)C(F)(F)F (centres undefined) | inactive: -6.61%
11 | CP(=O)(Nc1ccccn1)Oc1ccc(Cl)cc1 (centres undefined) | inactive: -4.44%
12 | CCOP(C)(=S)SCC(=O)NC(C)C(=O)O (centres undefined) | inactive: 2.93%
13 | CCOC(=O)c1ccc(NP(C)(=O)Oc2ccc(OC)cc2)cc1 (centres undefined) | inactive: -14.2%
14 | O=[N+]([O-])c1cc([N+](=O)[O-])c(O)c([N+](=O)[O-])c1.c1ccc(Oc2ccncc2)cc1 | inactive: 0.05%
15 | CCN(CC)CCCOC(=O)C(O)(c1ccccc1)c1ccccc1 | inactive: -6.58%
16 | COc1ccccc1-c1ccccn1.O=[N+]([O-])c1cc([N+](=O)[O-])c(O)c([N+](=O)[O-])c1 | inactive: -6.64%
17 | CC(C)(C)c1ccc(OP(C)(=O)Nc2ccc(SC(F)(F)F)cc2)cc1 (centres undefined) | inactive: -5.71%
18 | Cc1cccc(C)c1OP(C)(N)=O (centres undefined) | inactive: 5.04%
19 | O=[N+]([O-])c1ccc2c(c1)C=Nc1ccccc1O2 | inactive: -5.19%
20 | O=[N+]([O-])c1cc([N+](=O)[O-])c(Nc2cccnc2)c([N+](=O)[O-])c1 | inactive: 0.7%
21 | COc1ccccc1OP(C)(=O)Nc1cc(Cl)ccc1C (centres undefined) | inactive: 3.14%
22 | COc1ccc(OP(C)(=O)Nc2cccc(F)c2)cc1 (centres undefined) | inactive: -1.57%
23 | Cc1cc(C)cc(OP(C)(N)=O)c1 (centres undefined) | inactive: 4.79%
24 | CCOC(=O)c1ccc(NP(C)(=O)Oc2ccccc2)cc1 (centres undefined) | inactive: -13.3%
25 | COc1ccccc1OP(C)(=O)Nc1ccc(C)cc1 (centres undefined) | inactive: -5.17%

Row | SMILES | inhibition
26 | Cc1ccc(NP(C)(=O)Oc2ccccc2)c(C)c1 (centres undefined) | inactive: -1.77%
27 | O=C(O)c1cccc(Nc2c([N+](=O)[O-])cc([N+](=O)[O-])cc2[N+](=O)[O-])c1 | inactive: -2.51%
28 | CC1=NCCc2c1[nH]c1ccccc21.O=[N+]([O-])c1cc([N+](=O)[O-])c(O)c([N+](=O)[O-])c1 | inactive: -2.09%
29 | Cc1cc(C)cc(OP(C)(=O)Nc2ccc(C)cc2C)c1 (centres undefined) | inactive: -5.88%
30 | CCOC(=O)c1ccc(NP(C)(=O)Oc2cc(C)cc(C)c2)cc1 (centres undefined) | inactive: -2.51%
31 | COc1ccccc1OP(C)(=O)Nc1cccc(Br)c1 (centres undefined) | inactive: -4.07%
32 | CP(=O)(Nc1cccc(Br)c1)Oc1ccccc1 (centres undefined) | inactive: 0.26%
33 | Cc1cc(C)cc(OP(C)(=O)Nc2ccccn2)c1 (centres undefined) | inactive: -4.19%
34 | Cc1ccc(C)c(NP(C)(=O)Oc2ccccc2)c1 (centres undefined) | inactive: -6.79%
35 | CN(Cc1cccnc1)C(=O)COc1ccc(Cl)c(Cl)c1.O=[N+]([O-])c1cc([N+](=O)[O-])c(O)c([N+](=O)[O-])c1 | inactive: -1.92%
36 | O=[N+]([O-])c1cc([N+](=O)[O-])c(-n2nnc3ccccc32)c([N+](=O)[O-])c1 | inactive: 5.15%
37 | Cc1nc2ccc3ccccc3c2s1.O=[N+]([O-])c1cc([N+](=O)[O-])c(O)c([N+](=O)[O-])c1 | inactive: -0.77%
38 | O=[N+]([O-])c1cc([N+](=O)[O-])c(-c2cnn(-c3ccccc3)c2)c([N+](=O)[O-])c1 | inactive: 3.64%
39 | O=[N+]([O-])c1cc([N+](=O)[O-])c(Nc2nnnn2CCO)c([N+](=O)[O-])c1 | inactive: -16.1%
40 | CC1=C2N=C(C=C3N=C(C(C)=C4[N-][C@@](C)([C@@H]5N=C1[C@](C)(CCC(=O)NC[C@@H](C)OP(=O)([O-])O[C@H]1[C@@H](O)[C@@H](n6cnc7cc(C)c(C)cc76)O[C@@H]1CO)[C@H]5CC(N)=O)[C@@](C)(CC(N)=O)[C@@H]4CCC(N)=O)[C@@](C)(CC(N)=O)[C@@H]3CCC(N)=O)C(C)(C)[C@@H]2CCC(N)=O.[C-]#N.[Co+3] | inactive: -7.31%
41 | CCOC(=O)C(CC)C1=NC(C)(C)Cc2ccccc21.O=[N+]([O-])c1cc([N+](=O)[O-])c(O)c([N+](=O)[O-])c1 (centres undefined) | inactive: 5.45%
42 | CP(=O)(Nc1ccc(SC(F)(F)F)cc1)Oc1ccccc1 (centres undefined) | inactive: 2.49%
43 | CCCOc1ccc(NP(C)(=O)Oc2ccc(Cl)cc2)cc1 (centres undefined) | inactive: -1.31%
44 | COc1ccc(-c2ccccn2)cc1.O=[N+]([O-])c1cc([N+](=O)[O-])c(O)c([N+](=O)[O-])c1 | inactive: -8.36%
45 | COc1ccccc1OP(C)(=O)Nc1c(C)cccc1C (centres undefined) | inactive: 8.19%
46 | CN1CCCCC1COC(=O)C1(O)c2ccccc2CCc2ccccc21 (centres undefined) | inactive: 10.4%
47 | COc1ccc(NP(C)(=O)Oc2ccccc2OC)cc1 (centres undefined) | inactive: -10.7%
48 | CN(C)CCOC(=O)C(O)(c1ccccc1)C1CCCCC1 (centres undefined) | inactive: 5.39%
49 | COc1ccc(OP(C)(=O)Nc2cccc(Br)c2)cc1 (centres undefined) | inactive: -0.43%
